Measured values from several laboratories, pooled; numbers as filed in NIAID ChemDB.

All rows: tests in culture; species: Mycobacterium tuberculosis

Percent inhibition refers to the dose given; in toxicity tests it is the harm to the cells. MIC bound comes from a single tested concentration. ECn: concentration that inhibits the pathogen or its effect by n%. For "inactive" no cut-off is given. An empty or dashed field is not shown. A number after MIC or MFC names an inhibition level or a share of isolates. Rows are shuffled and stem from different studies.

smiles	changes	dose	measure	read by	strain or isolate	value
Cc1c(N2COCC2(C)C)c([N+](=O)[O-])cc2c(=O)c(C(=O)O)cn(C3CC3)c12	-	-	MIC	-	H37Rv	2.01 µM
COc1ccccc1-n1c(C)nc2c1C(=O)c1ccccc1C2=O	-	6.25 µg/mL	inhibition	resazurin	H37Rv	15%
Cc1cc(C)c2c(=O)n(CC(O)CNc3ccc4c(c3)OCO4)sc2n1	-	12.5 µg/mL	inhibition	-	H37Rv	93%
CCC(=O)NN1C(=O)c2ccccc2C1=O	-	12.5 µg/mL	inhibition	BACTEC	H37Rv	19%
CCN1C(=O)C(C)c2cc(C(=O)CN3CCN(c4noc5cc(Cl)ccc45)CC3)ccc21	-	-	MIC	visual reading / absorbance	H37Rv	1.56 µg/mL
C[C@]1(COc2ccc(N3CCC(Oc4ccc(OC(F)(F)F)cc4)CC3)nc2)Cn2cc([N+](=O)[O-])nc2O1	-	-	MIC	-	H37Rv	0.012 µg/mL
CC1C2C=CC1C(c1c3ccc(=O)c(O)c-3oc3c(O)c(O)ccc13)C2C(=O)O	-	-	MIC bound	BACTEC	H37Rv	>12.5 µg/mL
C[C@]1(COc2ccc(N3CCN(C/C=C/c4ccc(Oc5ccccc5)cc4)CC3)cc2)Cn2cc([N+](=O)[O-])nc2O1	-	-	MIC	-	H37Rv	0.012 µg/mL
CC1C(=O)Nc2ccc(C(=O)CN3CCN(c4ccccn4)CC3)cc21	-	-	MIC	visual reading / absorbance	H37Rv	25 µg/mL
O=C(O)CCc1nc2ccc3ccccc3c2[nH]c1=O	-	12.5 µg/mL	inhibition	BACTEC	H37Rv	-17%
Cc1ccc(S(=O)(=O)OCCn2sc3nc(C)cc(C)c3c2=O)cc1	-	-	MIC	-	H37Rv	>12.5 µg/mL
Cc1ccc(NC(=S)SCc2ccc(Cl)c(Cl)c2)cc1Br	-	12.5 µg/mL	inhibition	BACTEC	H37Rv	22%
CCOC(=O)c1ccc2c(c1)C(=O)c1nc3ccccc3c(=O)n1-2	-	-	MIC	-	H37Rv	0.06 µg/mL
CCn1cc(C(=O)O)c(=O)c2cc([N+](=O)[O-])c3cccnc3c21	gyrA mutation A90V	-	MIC90	-	BCG	2.67 µM
C=CCn1c(-c2cc3cc(Br)ccc3oc2=O)cs/c1=N\N=C\c1cc(Br)ccc1O	-	12.5 µg/mL	inhibition	-	H37Rv	91%
O=C1NC(Nc2cccc(Cl)c2)=N/C1=C\c1c(Cl)cccc1Cl	-	-	MIC	-	H37Rv	>12.5 µg/mL
C[C@]1(COc2ccc(N3CCC(Cc4cccc(OC(F)(F)F)c4)CC3)cc2)Cn2cc([N+](=O)[O-])nc2O1	-	-	MIC	-	H37Rv	0.39 µg/mL
O=[N+]([O-])c1cccc2c1Oc1ccccc1O2	-	6.25 µg/mL	inhibition	resazurin	H37Rv	17%
Cc1ccc2c(=O)c3ccccc3oc2c1C	-	4 µg/mL	inhibition	-	H37Rv	inactive
CC(=O)NC1C(C2COC(C)(C)O2)OC2OC(C)(C)OC21	-	12.5 µg/mL	inhibition	BACTEC	H37Rv	19%
O=C(O)c1c([N+](=O)[O-])cc2c(=O)c3cc([N+](=O)[O-])ccc3oc2c1C(=O)O	-	32 µg/mL	inhibition	-	H37Rv	inactive
Cc1cc(C)c2c(=O)n(CC(O)CN3CCCC3)sc2n1	-	-	MIC	-	H37Rv	>12.5 µg/mL
C=CCn1c(-c2cc3cc(Br)ccc3oc2=O)cs/c1=N\N=C\c1ccc(Cl)cc1	-	-	MIC	-	H37Rv	>12.5 µg/mL
Cc1c([N+](=O)[O-])ccc2oc3ccccc3c(=O)c12	-	16 µg/mL	inhibition	-	H37Rv	inactive
Cc1cc(C)c2c(=O)n(CC(O)CN3CCc4ccccc4C3)sc2n1	-	-	EC50	-	H37Rv	>12.5 µg/mL
COc1cccc(NC2CCN(c3ccc(OC[C@@]4(C)Cn5cc([N+](=O)[O-])nc5O4)cc3)CC2)c1	-	-	MIC	-	H37Rv	0.024 µg/mL
NC(=O)c1cnc(Cl)cn1	-	-	MIC	-	ATCC35801	16 µg/mL
COc1ccc2ncc(COC(=O)Nc3ccccc3)c(COC(=O)Nc3ccccc3)c2c1	-	12.5 µg/mL	inhibition	BACTEC	H37Rv	94%
O=C1c2ccccc2-n2c1nc1ccc(Br)cc1c2=O	-	-	MIC	-	H37Rv	0.13 µg/mL
Cn1cc(C(=O)O)c(=O)c2cc([N+](=O)[O-])c3cccnc3c21	gyrA mutation D94G	-	MIC90	-	BCG	1.4 µM
O=C1c2ccccc2C(=O)c2sc(Nc3cc(Cl)ccc3Cl)nc21	-	12.5 µg/mL	inhibition	BACTEC	H37Rv	100%
O=C1c2ccccc2-n2c1nc1ncccc1c2=O	-	-	MIC	-	H37Rv	0.25 µg/mL
O=C1NC(=Nc2ccccc2Cl)N/C1=C\c1c(Cl)cccc1Cl	-	-	MIC	-	H37Rv	>6.25 µg/mL
C[C@]1(COc2ccc(N3CCC(OC(=O)Nc4ccc(Cl)cc4)CC3)cc2)Cn2cc([N+](=O)[O-])nc2O1	-	-	MIC	-	H37Rv	0.003 µg/mL
COc1cc(C(=O)Nc2ccc(N(C)C)cc2)cc(OC)c1OC	-	6.25 µg/mL	inhibition	resazurin	H37Rv	-10%
CC1C(=O)N(C)c2ccc(C(=O)CN3CCN(c4ccccn4)CC3)cc21	-	-	MIC	visual reading / absorbance	H37Rv	1.56 µg/mL
CCOc1cc(/C=N/N=c2\scc(-c3cc4ccccc4oc3=O)n2CC)ccc1O	-	-	EC50	-	H37Rv	<12.5 µg/mL
O=C(COc1cnccn1)N/N=c1\scc(-c2ccc(Cl)cc2)n1-c1ccc(Cl)cc1	-	-	MIC	-	H37Rv	11.5 µg/mL
COc1ccc(CN=C2NC(=O)/C(=C/c3c(Cl)cccc3Cl)N2)cc1	-	12.5 µg/mL	inhibition	-	H37Rv	0%
CCCCc1ccc2c(c1)C(=O)c1nc3ccncc3c(=O)n1-2	-	-	MIC	-	H37Rv	0.015 µg/mL
COC(=S)Nc1ccc2c(c1)nc(-c1ccccc1)c1cc(NC(=S)OC)ccc12	-	-	MIC bound	BACTEC	H37Rv	>12.5 µg/mL
CO[C@H]1/C=C/O[C@@]2(C)Oc3c(C)c(O)c4c(=O)c(c5oc6cc(N7CCN(C(C)C)CC7)cc(=O)c6nc5c4c3=C2O)NC(=O)/C(C)=C\C=C\[C@H](C)[C@H](O)[C@@H](C)[C@@H](O)[C@@H](C)[C@H](OC(C)=O)[C@@H]1C	-	-	MIC	-	31 (rifampin-resistant)	0.2 µg/mL
O=C1c2cc(I)ccc2-n2c1nc1ncccc1c2=O	-	-	MIC	-	H37Rv	0.03 µg/mL
Clc1ccc(C2(Cn3ccnc3)OCC(COc3ccc(-c4ccccc4)cc3)O2)c(Cl)c1	-	6.25 µg/mL	inhibition	resazurin	H37Rv	83%
Cc1cc(C)c2c(=O)n(CO)sc2n1	-	-	EC50	-	H37Rv	<12.5 µg/mL
CCCCCCCCc1ccc2c(c1)C(=O)c1nc3ccncc3c(=O)n1-2	-	-	MIC	-	10038 RFLP:W	≤0.015 µg/mL
CO[C@H]1/C=C/O[C@@]2(C)Oc3c(C)c(O)c4c(=O)c(c5oc6cc(N7CCN(CC(C)C)CC7)cc(=O)c6nc5c4c3=C2O)NC(=O)/C(C)=C\C=C\[C@H](C)[C@H](O)[C@@H](C)[C@@H](O)[C@@H](C)[C@H](OC(C)=O)[C@@H]1C	-	-	MBC	-	2847 (rifampin-sensitive)	0.025 µg/mL
O=C1Cc2cc(C(=O)CN3CCN(c4ccccn4)CC3)ccc2N1	-	-	MIC	visual reading / absorbance	H37Rv	25 µg/mL
Cc1c(N2CCc3ccccc3C2C(=O)NC(C)(C)C)c([N+](=O)[O-])cc2c(=O)c(C(=O)O)cn(C3CC3)c12	-	-	MIC	-	H37Rv	1.5 µM
O=C1c2c(cccc2C(F)(F)F)-n2c1nc1ncccc1c2=O	-	-	MIC	-	H37Rv	>8 µg/mL
O=C1NC(=Nc2ccccc2Cl)N/C1=C\c1ccccc1Cl	-	12.5 µg/mL	inhibition	-	H37Rv	79%
CCCCn1c(-c2ccc(F)cc2)cs/c1=N\NC(=O)COc1cnccn1	-	-	MIC	-	H37Rv	7.6 µg/mL
CC(=O)C(N=Nc1ccc(S(=O)(=O)Nc2onc(C)c2C)cc1)C(=O)Nc1cc(C)cc(C)c1	-	-	MIC bound	BACTEC	H37Rv	>12.5 µg/mL
C[C@]1(COc2ccc(N3CCC(CCOCc4ccc(OC(F)(F)F)cc4)CC3)cc2)Cn2cc([N+](=O)[O-])nc2O1	-	-	MIC	-	H37Rv	0.012 µg/mL
O=C(COc1cnccn1)N/N=C1\SCC(=O)N1c1ccc(Cl)cc1[N+](=O)[O-]	-	-	MIC	-	H37Rv	89 µg/mL
CC1(C)OC2(CC1C1(C)C=CC(=O)O1)CC1C(O)(CCC34CC13C(=O)OC4c1ccoc1)O2	-	-	MIC	BACTEC	H37Rv	≥12.5 µg/mL
Cc1cc(C)c2c(=O)n(CC(O)CN3CCC(Cc4ccccc4)CC3)sc2n1	-	12.5 µg/mL	inhibition	-	H37Rv	100%
CC(CC=O)Nc1nn2c(=O)c3ccccc3nc2s1	-	-	MIC bound	resazurin	H37Rv	>6.25 µg/mL
O=C(COc1cnccn1)N/N=c1\scc(-c2ccc(Cl)cc2Cl)n1-c1ccc(Cl)cc1	-	-	MIC	-	H37Rv	13 µg/mL
O=c1oc2ccccc2cc1-c1cs/c(=N\N=C\c2cc(Br)ccc2O)n1C1CCCCC1	-	-	MIC	-	H37Rv	>12.5 µg/mL
[Na+].[O-]N=Nc1nc(-c2cccnc2)nc2ccccc12	-	-	MIC	BACTEC	H37Rv	≥12.5 µg/mL
O=C(O)c1cccc2oc3ccccc3c(=O)c12	-	32 µg/mL	inhibition	-	H37Rv	inactive
CCOc1ccc(N2C(=O)CS/C2=N\NC(=O)COc2cnccn2)cc1	-	-	MIC	-	H37Rv	169 µg/mL
CP1(=S)CCC2C3=C(CCC21)CC(=O)CC3	-	6.25 µg/mL	inhibition	resazurin	H37Rv	22%
CCCCCCC(C)c1ccc2c(c1)C(=O)c1nc3ccncc3c(=O)n1-2	-	-	MBC	-	H37Rv	2 µg/mL
COc1cc2c3c(cc4cc5c(cc4c3c1OC)OCO5)N(C=O)CC2	-	-	MIC	resazurin	H37RvRr	>50 µg/mL
C[C@]1(COc2ccc(N3CCN(Cc4csc(-c5ccc(C(F)(F)F)cc5)n4)CC3)cc2)Cn2cc([N+](=O)[O-])nc2O1	-	-	MIC	-	H37Rv	0.024 µg/mL
Cc1c(N2CCN(C)C(c3ccccc3)C2)c([N+](=O)[O-])cc2c(=O)c(C(=O)O)cn(C(C)(C)C)c12	-	-	MIC	-	H37Rv	>26.12 µM
Cc1cccc2oc3ccccc3c(=O)c12	-	4 µg/mL	inhibition	-	H37Rv	inactive
CCCCn1c(-c2cc3ccccc3oc2=O)cs/c1=N\N=C\c1ccc(O)c(OCC)c1	-	-	EC50	-	H37Rv	<12.5 µg/mL
O=C(O)c1cccc2c(=O)c3ccccc3oc12	-	16 µg/mL	inhibition	-	H37Rv	inactive
COc1ccc(-c2cs/c(=N\NC(=O)COc3cnccn3)n2C(C)C)cc1	-	-	MIC	-	H37Rv	7.5 µg/mL
CCOC(=O)c1ccc2c(c1)C(=O)c1nc3ncccc3c(=O)n1-2	-	-	MIC	-	H37Rv	0.06 µg/mL
COc1c(N2CCNC(C)C2)c(F)cc2c(=O)c(C(=O)O)cn(C3CC3)c12	-	-	MIC	-	H37Rv	1.04 µM
NC(=O)c1cnccn1	-	-	MIC	-	W296	>2048 µg/mL
Cc1cccc(C)c1NC(=O)C(=O)CC(=O)c1sc(Nc2c(C)cccc2C)nc1C	-	6.25 µg/mL	inhibition	resazurin	H37Rv	-13%
O=C(O)c1ccc2c(=O)c3ccccc3oc2c1	-	32 µg/mL	inhibition	-	H37Rv	inactive
COc1ccc2cc([N+](=O)[O-])c3ccc(=O)oc3c2c1	-	-	MIC	resazurin	H37RvSr	25 µg/mL
C[n+]1cccc(C(=O)NN)c1.Cc1ccc(S(=O)(=O)[O-])cc1	-	12.5 µg/mL	inhibition	BACTEC	H37Rv	5%
O=C1NC(Nc2cccc(Cl)c2)=N/C1=C\c1ccc(Cl)cc1Cl	-	12.5 µg/mL	inhibition	-	H37Rv	48%
Cc1cc(C)c2c(n1)S(=O)(=O)N(CC(=O)c1ccccn1)C2=O	-	12.5 µg/mL	inhibition	-	H37Rv	1%
CCC1CC(C)C(O)/C=C/C=C/CC(C)OC(=O)CC(O)C(OC)C1O[C@@H]1O[C@H](C)C[C@@](O)(C(C)=O)[C@H]1O	-	-	MIC bound	BACTEC	H37Rv	>12.5 µg/mL
Cc1ccc(Nc2c(C#N)[n+]([O-])c3cc(Cl)ccc3[n+]2[O-])cc1	-	-	EC50	-	H37Rv	<12.5 µg/mL
CO[C@H]1/C=C/O[C@@]2(C)Oc3c(C)c(O)c4c(O)c(c(/C=N/N5CCN(C6CCCC6)CC5)c(O)c4c3C2=O)NC(=O)/C(C)=C\C=C\[C@H](C)[C@H](O)[C@@H](C)[C@@H](O)[C@@H](C)[C@H](OC(C)=O)[C@@H]1C	-	-	MIC	-	L407	0.1 µg/mL

8 of the rows above, restated:

smiles	changes	dose	measure	read by	strain or isolate	value
Cc1ccc(Nc2c(C#N)[n+]([O-])c3cc(Cl)ccc3[n+]2[O-])cc1	-	-	EC50	-	H37Rv	<12.5 µg/mL
COc1cccc(NC2CCN(c3ccc(OC[C@@]4(C)Cn5cc([N+](=O)[O-])nc5O4)cc3)CC2)c1	-	-	MIC	-	H37Rv	0.024 µg/mL
C[C@]1(COc2ccc(N3CCN(Cc4csc(-c5ccc(C(F)(F)F)cc5)n4)CC3)cc2)Cn2cc([N+](=O)[O-])nc2O1	-	-	MIC	-	H37Rv	0.024 µg/mL
Cc1cc(C)c2c(=O)n(CO)sc2n1	-	-	EC50	-	H37Rv	<12.5 µg/mL
O=[N+]([O-])c1cccc2c1Oc1ccccc1O2	-	6.25 µg/mL	inhibition	resazurin	H37Rv	17%
O=C1c2c(cccc2C(F)(F)F)-n2c1nc1ncccc1c2=O	-	-	MIC	-	H37Rv	>8 µg/mL
O=C(O)CCc1nc2ccc3ccccc3c2[nH]c1=O	-	12.5 µg/mL	inhibition	BACTEC	H37Rv	-17%
Cc1cc(C)c2c(=O)n(CC(O)CN3CCCC3)sc2n1	-	-	MIC	-	H37Rv	>12.5 µg/mL